SI data for 3 molecules are collected here from patent US10639303B2, “Alkaloids and their preparation and application as anti-HSV-1 agents” (OCEAN UNIVERSITY OF CHINA, priority 2015, dated 2020).

The subject of the data set is HSV-1. In words: cytopathic effects (CPE) assay, antiviral activity against HSV-1 in Hep-2 cells. The class given is cell-based, Herpes Simplex Virus 1. Conditions: selectivity index (TC50/IC50). The method, then:
The antiviral activities against HSV-1 were evaluated by a cytopathic effects (CPE) assay. Hep-2 monolayer cells were cultured with trypsin enzyme-digesting technique and transferred to 96-well plates. The HSV-1 virus was seeded in Hep-2 cells in 96-well plates, with 2% RPMI-1640 medium, and incubated at 37° C., 5% CO2. After more than 90% lesions, the virus-infected cells were repeatedly frozen and thawed 3 times, centrifuged, quantitative packed and stored at −80° C. Each tested compound was dissolved in 10 μl DMSO to make a homogeneous solution and the solution was diluted 10 times by half-and-half dilution with 2% RPMI-1640 medium. The gradient solution was added to the infected cells incubated in 96-well plates, Ribavirin was used as positive control. Normal cells were used as blank control. Infected cells were used as negative control. All samples were incubated at 37° C., 5% CO2. Pathological changes were observed once every hour, for 24 h. After 90% lesions in negative control, 1% neutral red was added after removal of liquid in 96-well plates. The OD value was determined at 540 nm. IC50 values of tested compounds were calculated by Reed-Muench methods.
A general note: Protection from cytopathic effect is a common read-out in antiviral testing.
`C=C(C)[C@@H]1CC[C@](C)(/C=C/c2ccc3c(c2O)[C@@](O)(c2ccccc2)[C@H](OC)C(=O)N3)O1` gave an SI of 955.
For `NC(=O)c1ncn([C@@H]2O[C@H](CO)[C@@H](O)[C@H]2O)n1` [Ribavirin, reference compound], the SI was >128.
`CO[C@@H]1C(=O)Nc2ccc(/C=C/[C@]3(C)CC[C@H](O)[C@@H](C)C3)c(O)c2[C@@]1(O)c1ccccc1` yielded an SI of 179.
